Literature values, collected in paper PMC7767221, “Conjugates Containing Two and Three Trithiolato-Bridged Dinuclear Ruthenium(II)-Arene Units as In Vitro Antiparasitic and Anticancer Agents” (Pharmaceuticals, 2020).

Tested on: A2780 ovarian cancer cells
Design: method as in PMID 30620038
Settings: ICP-MS; cited from earlier work

Row | Substance | Ru content found in the mitochondrial fraction
1 | [(η^6-p-MeC6H4Pr^i)2Ru2(µ2-S-p-C6H4R)3]^+ with R = p-Bu^t | up to 97%
2 | [(η^6-p-MeC6H4Pr^i)2Ru2(µ2-S-p-C6H4R)3]^+ with R = p-Me [A] | up to 97%
